# Results published in paper PMC9822072, “Synthesis and Structure–Activity Relationship of 2,6-Disubstituted Thiosemicarbazone Derivatives of Pyridine as Potential Antituberculosis Agents” (Materials, 2023).
# Tested on: M. tuberculosis H37Rv (standard strain)
# Assay: Tuberculostatic activity, twofold serial microdilution with Alamar Blue
# Assay type: cell-based, Mycobacterium tuberculosis
# Conditions: not given
row,Compound,"MIC compared with INH, times higher"
1,"NC(=NNC(=S)N1CCCC1)c1cccc(N2CCCCC2)n1 [Compound 7, 6-(Piperidin-1-Yl)-N’-(Pyrrolidine-1-Carbonothioyl)Picolinohydrazonamide]",16
2,"NC(=NNC(=S)N1CCCC1)c1cccc(N2CCCC2)n1 [Compound 5, 6-(Pyrrolidin-1-Yl)-N’-(Pyrrolidine-1-Carbonothioyl)Picolinohydrazonamide]",16

# Tested on: HaCaT cells
# Assay: Cytotoxic activity, sulforhodamine B method
# Conditions: IC50 HaCaT (sulforhodamine B) against MIC for M. tuberculosis standard strain
row,Compound,SI IC50-HaCaT/MIC-MT SULF
1,"NC(=NNC(=S)N1CCCC1)c1cccc(Oc2ccccc2)n1 [Compound 9, 6-Phenoxy-N’-(Pyrrolidine-1-Carbonothioyl)Picolinohydrazonamide]",0.16
2,"NC(=NNC(=S)N1CCOCC1)c1cccc(N2CCCC2)n1 [Compound 4, N’-(Morpholine-4-Carbonothioyl)-6-(Pyrrolidin-1-Yl)Picolinohydrazonamide]",>3.13
3,"NC(=NNC(=S)N1CCOCC1)c1cccc(N2CCCCC2)n1 [Compound 6, N’-(Morpholine-4-Carbonothioyl)-6-(Piperidin-1-Yl)Picolinohydrazonamide]",>6.25
4,"NC(=NNC(=S)N1CCOCC1)c1cccc(Oc2ccccc2)n1 [Compound 8, N’-(Morpholine-4-Carbonothioyl)-6-Phenoxypicolinohydrazonamide]",6.25
